{"source": "paper PMC12337344", "test_system": "G2L4 RT (Pseudomonas aeruginosa AZPAE12409)", "assay": "X-ray crystallography (2.77 Å)", "settings": "20 mM MgCl2, 1 mM MnCl2, 2 mM dCTP, ddGTP, incoming dCTP bound at the active site, protein:DNA 1:1.2; extended in the crystal at the 3' end by C, C and ddG (3'-terminal dideoxyguanosine); Co-crystallization at 25 C, protein:DNA 1:1.2, with 20 mM MgCl2, 1 mM MnCl2, 2 mM dCTP and ddGTP; protein in crystallization buffer; recombinant protein; protein details: MBP tag removed for crystallization; folded or branched DNA", "note": "The exact form of at least one protein or probe is not confirmed."}
{"sequence": "AAGCGGTTAACCCAA [15-nt snapback DNA]", "values": [{"measurement": "binding result", "value": "binds"}]}
